Results of unrelated studies side by side (data: NIAID ChemDB).

All rows: whole-cell or culture tests; agent: Candida parapsilosis

Blank or dashed fields: not listed here. MIC50, MIC90 and the like: level of inhibition, or share of isolates inhibited. Rows are shuffled and stem from different studies.

compound | strain | method | endpoint | value
O/N=C\c1ccccc1Cl |  |  | MIC | 1410 µM
OC(Cn1cncn1)(Cn1cncn1)c1ccc(F)cc1F | CNCYP51 |  | MIC80 | 1.16 µg/mL
O=C(/C=C/c1cccc(F)c1)OC1CCN(CC(O)(Cn2cncn2)c2ccc(F)cc2F)CC1 | 0306392 | broth dilution | MIC80 | 0.129 µM
CN(Cc1ccc(S(=O)(=O)Nc2ccccc2)cc1)CC(O)(Cn1cncn1)c1ccc(F)cc1F | CAPA1 | resazurin | MIC | 0.1 µg/mL
Clc1ccc(C(c2ccccc2)N2CCN(CCn3cncn3)CC2)cc1 |  | broth dilution | MFC | 256 µg/mL
CN(Cc1ccc(S(=O)(=O)N2CCOCC2)cc1)CC(O)(Cn1cncn1)c1ccc(F)cc1F | CAPA2 | resazurin | MIC | 1.1 µg/mL
Cc1ccc(C(O)c2cccc(C(=O)CCn3ccnc3)c2)cc1 | RTCC 1079 | broth dilution | MIC | 64 µg/mL
O=C1S/C(=C\c2ccncc2)C(=O)N1CC(O)(Cn1nccn1)c1ccc(F)cc1F | CNCYP51 |  | MIC80 | 36.08 µg/mL
O=C1C(=O)c2ccccc2C2=C1CC(CI)O2 | Clinical isolate | broth dilution | MIC | 42.6 µg/mL
O=C(/C=C/c1cccc([N+](=O)[O-])c1)OC1CCN(CC(O)(Cn2cncn2)c2ccc(F)cc2F)CC1 | 0306392 | broth dilution | MIC80 | 0.122 µM
CC(C)(O)c1cn(-c2ccc(Cl)cc2)nn1 | URM 4261 | broth dilution | MIC | 256 µg/mL
O=C(/C=C/c1ccccc1[N+](=O)[O-])OC1CCN(CC(O)(Cn2cncn2)c2ccc(F)cc2F)CC1 | 0306392 | broth dilution | MIC80 | 0.487 µM
OC(CCn1ccnc1)c1cccc(C(O)c2ccc(Cl)c(Cl)c2)c1 | RTCC 1079 | broth dilution | MIC | >64 µg/mL
CC(C)c1ccc(S(=O)(=O)Nc2ccc(CN(C)CC(O)(Cn3cncn3)c3ccc(F)cc3F)cc2)cc1 | CAPA1 | resazurin | MIC | 0.15 µg/mL
COc1ccc(C(c2ccc(OC)cc2)n2ccnc2)cc1 |  | agar | MIC90 | >256 µg/mL
CC1=C2C[C@@H]3[C@](C)(CCC[C@@]3(C)O)C[C@]2(O)OC1=O | ATCC 22019 | broth dilution | MIC | >256 µg/mL
O=C(CCn1ccnc1)c1ccc(Br)cc1 | RTCC 1018 | broth dilution | MIC | 64 µg/mL
COc1cc(C[C@@]2(O)CO[C@H](c3ccc(O)c(OC)c3)[C@H]2CO[C@@H]2O[C@H](CO)[C@@H](O)[C@H](O)[C@H]2O)ccc1O | ATCC 22019 | MTT | MIC | 1.5 µg/mL
COc1ccc(N2C(=O)CC(C)C2=O)cc1 | CCC 124-2000 | broth dilution / turbidity | MIC | 125 µg/mL
CCCCCOc1ccc(-c2cc(-c3ccc(C(=O)N[C@H]4C[C@@H](O)[C@@H](O)NC(=O)[C@@H]5[C@@H](O)[C@@H](C)CN5C(=O)[C@H]([C@H](O)CC(N)=O)NC(=O)[C@H]([C@H](O)[C@@H](O)c5ccc(O)c(OS(=O)(=O)O)c5)NC(=O)[C@@H]5C[C@@H](O)CN5C(=O)[C@H]([C@@H](C)O)NC4=O)cc3)no2)cc1 |  | broth dilution | MIC90 | 1 µg/mL
CC(C)c1ccc(NS(=O)(=O)c2ccc(CN(C)CC(O)(Cn3cncn3)c3ccc(F)cc3F)cc2)cc1 | CAPA2 | resazurin | MIC | 0.62 µg/mL
CC(C)(C)C(=O)OC1CCN(CC(O)(Cn2cncn2)c2ccc(F)cc2F)CC1 | 0306392 | broth dilution | MIC80 | 0.592 µM
O=C1S/C(=C\c2ccc3ccccc3n2)C(=O)N1CC(O)(Cn1nccn1)c1ccc(F)cc1F | CNCYP51 |  | MIC80 | 2.21 µg/mL
O=C(/C=C/c1ccc([N+](=O)[O-])cc1)OC1CCN(CC(O)(Cn2cncn2)c2ccc(F)cc2F)CC1 | 0306392 | broth dilution | MIC80 | 0.122 µM
O=C(CCn1ccnc1)c1cccc2ccccc12 | RTCC 1079 | broth dilution | MIC | 64 µg/mL
CC1=C2C3=C4[C@](C)([C@@H]5C[C@@H]5[C@@]4(O)C[C@@H]4[C@]35OC(=O)C3=C5C[C@H]5[C@](O)(COC(=O)/C(C)=C/COC(=O)CCC(=O)OC3)[C@H]3C[C@H]3[C@]45C)[C@H](O)[C@]2(O)OC1=O | ATCC 22019 | broth dilution | MIC | >256 µg/mL
O/N=C\c1ccccc1 |  |  | MIC100 | 4130 µM
C[C@@H]1CC(=O)N(c2ccc(Br)cc2)C1=O | CCC 124-2000 | broth dilution / turbidity | MIC | 62.5 µg/mL
O=C(CCn1ccnc1)c1cccc(C(O)c2ccc(Cl)cc2)c1 | RTCC 1079 | broth dilution | MIC | 64 µg/mL
C[C@@H]1CC(=O)N(c2ccc([N+](=O)[O-])cc2)C1=O | CCC 124-2000 | broth dilution / turbidity | MIC | 62.5 µg/mL
COc1ccc(/C=C2\SC(=O)N(CC(O)(Cn3nccn3)c3ccc(F)cc3F)C2=O)cc1 | CNCYP51 |  | MIC80 | 4.23 µg/mL
CCOc1ccc2nc3cc(N=C4NC(=O)/C(=C\c5ccc([N+](=O)[O-])o5)S4)ccc3c(N)c2c1 |  | broth dilution | MIC | 10 µg/mL
C=CCc1ccc(O)c(OC)c1 | 2559 | turbidity | MIC90 | 500 µg/mL
COc1ccc(/C=C/C(=O)OC2CCN(CC(O)(Cn3cncn3)c3ccc(F)cc3F)CC2)cc1OC | 0306392 | broth dilution | MIC80 | 0.118 µM
CC1CC(=O)N(c2ccc([N+](=O)[O-])cc2)C1=O | CCC 124-2000 | broth dilution / turbidity | MIC | 125 µg/mL
CN(Cc1ccc(S(=O)(=O)Nc2ccc([N+](=O)[O-])cc2)cc1)CC(O)(Cn1cncn1)c1ccc(F)cc1F | CAPA1 | resazurin | MIC | 0.017 µg/mL
O/N=C/c1ccc(O)cc1 |  |  | MIC100 | >7290 µM
CC(C)C(=O)OC1CCN(CC(O)(Cn2cncn2)c2ccc(F)cc2F)CC1 | 0306392 | broth dilution | MIC80 | 0.612 µM
CCC(C)/C=C1\SC(=O)N(CC(O)(Cn2nccn2)c2ccc(F)cc2F)C1=O | CNCYP51 |  | MIC80 | 2.46 µg/mL
CCCCCCCCCCCCCCCC(=O)NC(CCCCN)C(=O)NC(CCCCN)C(N)=O | ATCC 22019 | broth dilution | MIC | 0.5 µg/mL
O=C(/C=C/c1ccccc1)OC1CCN(CC(O)(Cn2cncn2)c2ccc(F)cc2F)CC1 | 0306392 | broth dilution | MIC80 | 0.008 µM
O=C(c1ccccc1)C(c1ccccc1)n1cnc2ccccc21 |  | agar | MIC90 | 128 µg/mL
CC1C(=O)N(c2ccccc2)C(=O)C1C | CCC 124-2000 | broth dilution / turbidity | MIC | 62.5 µg/mL
O/N=C\c1cccs1 |  |  | MIC100 | 3930 µM
O=C(CCl)OC1CCN(CC(O)(Cn2cncn2)c2ccc(F)cc2F)CC1 | 0306392 | broth dilution | MIC80 | 9.66 µM
Clc1ccc(C(c2ccccc2)N2CCN(CCn3ccnc3)CC2)cc1 |  | broth dilution | MFC | >256 µg/mL
O/N=C\c1ccc(O)cc1 |  | broth dilution | MIC100 | >7290 µM
COC(=O)/C(C)=C1\C(=O)[C@H](O)[C@]2(C)C3=C1[C@]14OC(=O)C5=C1C[C@H]1[C@](O)(COC(=O)/C(C)=C/COC(=O)CCC(=O)OC5)[C@H]5C[C@H]5[C@]1(C)[C@@H]4C[C@]3(O)[C@H]1C[C@H]12 | ATCC 22019 | broth dilution | MIC | 128 µg/mL
CCC(C)n1ncn(-c2ccc(N3CCN(c4ccc(OC[C@H]5CO[C@](Cn6cncn6)(c6ccc(Cl)cc6Cl)O5)cc4)CC3)cc2)c1=O |  | broth dilution | MIC90 | 0.13 µg/mL
CCCc1ccc(NS(=O)(=O)c2ccc(CN(C)CC(O)(Cn3cncn3)c3ccc(F)cc3F)cc2)cc1 | CAPA1 | resazurin | MIC | 0.12 µg/mL
C/C(=N/O)C(Cl)(Cl)Cl |  |  | MIC100 | 6450 µM
Cc1coc2c1C(=O)[C@@H]1[C@@](C)(C2)[C@H](O)CC[C@@]1(C)O | ATCC 22019 | broth dilution | MIC | >256 µg/mL